Results of unrelated studies side by side (data: NIAID ChemDB).

Common to all: growth or infection tests; organism: Mycobacterium tuberculosis

Two numbers with a dash give a range or band.

smiles | changes | strain | tested at | read-out | setting | method | value
O=C(N/N=C/c1ccco1)c1ccc(O)cc1 |  |  |  | MIC |  |  | 1 µg/mL
CCC/C=C/C=C/[C@@H]1C[C@@H](O)[C@@H](O)C(=O)[C@H]1CO |  | H37Rv |  | MIC |  | BACTEC | ≥12.5 µg/mL
COc1ccc(CCNC(=O)c2ccc([N+](=O)[O-])s2)cc1 |  | H37Rv |  | MIC90 |  |  | 200 µg/mL
CC1COc2c(N3CCN(C)CC3)c(F)cc3c(=O)c(C(=O)O)cn1c23 | Drug-resistant | ATCC 2794 |  | MIC |  | resazurin | 0.14 µM
O=[N+]([O-])c1cccc(-c2csc(-n3cccc3)n2)c1 |  | H37Rv |  | MIC |  | resazurin | 0.8 µg/mL
CC(=O)Oc1cc2c(cc1OC(C)=O)OCC(c1ccc(C)cc1)C2 |  | H37Rv |  | MIC bound |  | BACTEC | >12.5 µg/mL
NNC(=O)c1ccc(O)cc1 |  |  |  | MIC |  |  | 40 µg/mL
Cc1ccc2c(c1)C1(SC(C)C(=O)N1c1ccc(Cl)cc1)C(=O)N2CN1CCOCC1 |  | H37Rv |  | MIC |  | BACTEC | ≥12.8 µg/mL
C=Cc1ncnc2c1ncn2Cc1ccccc1 |  | H37Rv |  | EC50 |  | BACTEC | >12.5 µg/mL
CCOC(=O)c1ccc(C(=O)Nc2cccc(OC)c2)o1 |  | H37Rv |  | MIC90 |  |  | 200 µg/mL
O=C(Cc1ccccc1)N1COC(c2sc3ccc(Oc4ccccc4)cc3c2Cl)=N1 |  | H37Rv | 6.25 µg/mL | inhibition |  |  | 0%
C1=C(c2nc(-c3ccncc3)no2)c2ccccc2C12CCN(CC1CCCO1)CC2 |  | H37Rv |  | MIC |  | resazurin | 6.3 µM
CC(=O)Nc1ccc(C(=O)NN=C(C)C)cc1 |  |  |  | MIC |  |  | >40 µg/mL
FC(F)(F)c1cc(N2CCOCC2)c2cccc(C(F)(F)F)c2n1 |  |  |  | MIC |  |  | >128 µM
O=C1C=C(Nc2cccc(C(=O)O)c2)c2ccccc2C1=O |  | H37Rv | 6.25 µg/mL | inhibition |  | resazurin | 47%
C1=C(c2nc(-c3ccccc3)no2)c2ccccc2OC12CCN(CC1CCCO1)CC2 |  | H37Rv |  | MIC |  | resazurin | 0.8 µM
Clc1ccc(-c2csc(-n3cccc3)n2)c(Cl)c1 |  | H37Rv |  | MIC |  | resazurin | 0.8 µg/mL
O=C(Oc1ccc(Cl)cc1C(=O)Nc1cccc(C(F)(F)F)c1)c1cnccn1 |  | multidrug resistant 234/2005 |  | MIC | 21 d |  | 2 µM
Cc1nc2ccc([N+](=O)[O-])cc2n1C(=O)/C=C/c1ccccc1 |  | H37Rv |  | MIC100 |  | resazurin / visual reading | 25 µg/mL
CSc1ccc(/C=N/NC(=O)c2sc3ccc(Oc4ccccc4)cc3c2Cl)cc1 |  | H37Rv | 6.25 µg/mL | inhibition |  |  | 11%
COc1ccc(Cc2noc(C3=CC4(CCN(CC5CCCO5)CC4)c4ccccc43)n2)cc1 |  | H37Rv |  | MIC |  | resazurin | 25 µM
N=C(N)N=Nc1ccc(O)cc1 |  | H37Rv | 12.5 µg/mL | inhibition |  | BACTEC | 19%
O=C(Oc1ccc(Br)cc1C(=O)Nc1ccc(C(F)(F)F)cc1)c1cnccn1 |  | multidrug resistant 234/2005 |  | MIC | 14 d |  | 0.25 µM
COc1ccc(CC(=O)N2COC(c3sc4ccc(Oc5ccccc5)cc4c3Cl)=N2)cc1OC |  | H37Rv | 6.25 µg/mL | inhibition |  |  | 0%
Cc1ccc(-c2nc3ccccc3n2C(=O)/C=C/c2ccccc2)cc1 |  | H37Rv |  | MIC100 |  | resazurin / visual reading | 1.6 µg/mL
COc1ccc(CSC(=S)Nc2ccc(C)c(Cl)c2)cc1 |  | H37Rv |  | MIC bound |  | BACTEC | >12.5 µg/mL
O=C(N/N=C/c1ccccc1)c1sc2ccc(Oc3ccccc3)cc2c1Cl |  | H37Rv | 6.25 µg/mL | inhibition |  |  | 0%
NCCCC(N)CC(=O)NCC1NC(=O)C(CO)NC(=O)C(NC(=O)CC(N)CCCN)CNC(=O)C(C2CCN=C(N)N2)NC(=O)/C(=C/NC(N)=O)NC1=O |  | Isolate VIM-R/5 |  | MIC |  |  | 20 µg/mL
O=C(N/N=C/c1ccccc1O)c1ccccc1 |  |  |  | MIC |  |  | 10 µg/mL
Nc1[nH][nH]c(=O)c1N=O |  | H37Rv | 12.5 µg/mL | inhibition |  | BACTEC | 3%
Ic1nc2cncnc2n1Cc1ccccc1 |  | H37Rv |  | EC50 |  | BACTEC | >12.5 µg/mL
[Na+].[Na+].[O-]/C(=N\N=C(\[O-])c1ccccc1)c1ccccc1 |  |  |  | MIC |  |  | >200 µg/mL
O=C(O)C1NCCNC1C(=O)O |  | H37Rv | 12.5 µg/mL | inhibition |  | BACTEC | -4%
O=C(Oc1cc(Cl)ccc1C(=O)Nc1ccc(C(F)(F)F)cc1)c1cnccn1 |  | extensively drug resistant Praha 131 |  | MIC | 21 d |  | 0.125 µM
Cc1c2ccncc2cc2c1sc1ccncc12 |  | H37Rv |  | MIC |  | resazurin | 0.39 µg/mL
C1=C(c2nc(-c3cccnc3)no2)c2ccccc2C12CCN(CC1CCCO1)CC2 | Spiroindene-resistant | TB365 |  | MIC |  | turbidity | >31 µM
O=C(O)c1ccc(CN2CCCC[C@H]2[C@@H](O)c2cc(C(F)(F)F)nc3c(C(F)(F)F)cccc23)cc1 |  |  |  | MIC |  |  | 63 µM
COc1cc(O)c2c(O)c3c(=O)cc(C)oc3cc2c1 |  | PZA-R |  | MIC |  |  | >12.5 µg/mL
CC(C)=NNC(=O)c1ccc(N)cc1O |  |  |  | MIC |  |  | >200 µg/mL
Cc1ccc(-c2noc(C3=CC4(CCN(CC5CCCO5)CC4)c4ccccc43)n2)cn1 | Rifampicin-resistant | 19000 |  | MIC |  | resazurin | 0.78 µM
C=C(OCC)c1ncnc2c1nc(Cl)n2Cc1ccccc1 |  | H37Rv |  | EC50 |  | BACTEC | >12.5 µg/mL
C=C1C(=O)OC(CCCCC)C1C(=O)O |  | H37Rv |  | MIC bound |  | BACTEC | >12.5 µg/mL
NNC(=O)c1ccncc1 |  | Strain 361 |  | MIC |  |  | 8 µg/mL
NNC(=O)c1ccncc1 |  | NHN335 |  | MIC |  |  | 0.1 µg/mL
Ic1ncc2ncn(Cc3ccccc3)c2n1 |  | H37Rv |  | EC50 |  | BACTEC | >12.5 µg/mL
O=C(/C=C/c1ccccc1)n1c(-c2ccc(F)cc2)nc2ccccc21 |  | H37Rv |  | MIC100 |  | resazurin / visual reading | 25 µg/mL
NC(=O)c1cnccn1 |  | H37Rv 331/88 |  | MIC | 14 d |  | 250–1000 µM
O[C@@H](c1cc(C(F)(F)F)nc2c(C(F)(F)F)cccc12)[C@@H]1CCCCN1Cc1ccncc1 |  |  |  | MIC |  |  | 22 µM
CN[C@@H]1[C@H](O[C@H]2[C@H](O[C@H]3[C@H](O)[C@@H](O)[C@H](N=C(N)N)[C@@H](O)[C@@H]3N=C(N)N)O[C@@H](C)[C@]2(O)C=O)O[C@@H](CO)[C@H](O)[C@H]1O |  | H37Rv |  | MIC |  | resazurin / visual reading | 6.25 µg/mL
CN(C)c1ccc(CC(=O)c2ccc([N+](=O)[O-])o2)cc1 |  | H37Rv |  | MIC90 |  |  | 0.1 µg/mL
CC(C)=CCOc1c2ccoc2cc2oc(=O)ccc12 | Isoniazid- and rifampicin-resistant | H37Rv clinical isolate CRY3 |  | MIC100 |  | resazurin | 200 µg/mL
CCCCC/C(CC1NC(=S)NC1=O)=N\NC(=O)c1ccncc1 | KatG G285V | H37Rv |  | MIC |  | visual reading / absorbance | 3.1 µM
COc1ccc(CC(=O)N2COC(c3sc4ccc(Oc5ccccc5)cc4c3Cl)=N2)cc1 |  | H37Rv | 6.25 µg/mL | inhibition |  |  | 3%
CC(=O)NC[C@H]1CN(c2ccc(N3CCOCC3)c(F)c2)C(=O)O1 |  | Strain 158 |  | MIC |  |  | >16 µg/mL
O=C1c2c(O)cccc2[C@H]([C@@H]2O[C@H](CO)[C@@H](O)[C@H](O)[C@H]2O)c2cc(CO)cc(O)c21 |  | H37Rv |  | MIC bound |  | BACTEC | >12.5 µg/mL
NC(=O)c1cnccn1 |  | H37Rv |  | MIC100 |  | resazurin / visual reading | 3.12 µg/mL
CC1=NN(C(=O)c2ccncc2)C(=O)C1N=Nc1ccc(S(=O)(=O)Nc2ccccn2)cc1 |  | H37Rv | 12.8 µg/mL | inhibition |  | BACTEC | 0%
O=C(NN1C(=O)CCC1=O)c1ccc(-n2cccc2)cc1 |  | H37Rv |  | MIC |  | resazurin | 6.25 µg/mL
O=C(/C=C/c1ccccc1)n1cnc2ccccc21 |  | H37Rv |  | MIC100 |  | resazurin / visual reading | 50 µg/mL
CCOC(=O)c1c(C)oc2cc3c(C(=O)OCC)c(C)oc3cc12 |  | H37Rv | 12.5 µg/mL | inhibition |  | BACTEC | 3%
O=C(N/N=C(\c1nc2ccc([N+](=O)[O-])cc2[nH]c1=O)C(O)c1ccc([N+](=O)[O-])cc1)c1ccncc1 | KatG G385V | H37Rv |  | MIC |  | visual reading / absorbance | 50 µM
O=C(N/N=C/c1ccc(Cl)cc1Cl)c1ccccc1Cl |  |  |  | MIC |  |  | 100 µg/mL
NNC(=O)c1ccncc1 | KatG G285V | H37Rv |  | MIC |  | visual reading / absorbance | 0.1 µM
O=C(Oc1ccc(Cl)cc1C(=O)Nc1cccc(F)c1)c1cnccn1 |  | H37Rv 331/88 |  | MIC | 21 d |  | 4 µM
CO[C@H]1/C=C/O[C@@]2(C)Oc3c(C)c(O)c4c(O)c(c(/C=N/N5CCN(C/C=C/c6ccccc6)CC5)c(O)c4c3C2=O)NC(=O)/C(C)=C\C=C\[C@H](C)[C@H](O)[C@@H](C)[C@@H](O)[C@@H](C)[C@H](OC(C)=O)[C@@H]1C |  | MTB9 (RIF-R) |  | MIC |  |  | >8 µg/mL
COc1ccc(CCNC(=O)c2nc([N+](=O)[O-])cn2C)cc1 |  | H37Rv |  | MIC90 |  |  | >200 µg/mL
CN(C)CCCN1c2ccccc2Sc2ccc(Cl)cc21 |  | Isolate B drug-susceptible |  | MIC |  |  | 10 µg/mL
C[C@@H]1CN(c2c(F)c(N)c3c(=O)c(C(=O)O)cn(C4CC4)c3c2F)C[C@H](C)N1 |  | 900201 |  | MIC |  |  | 0.1 µg/mL
O=[N+]([O-])c1ccc(-c2csc(-n3cccc3)n2)cc1 |  | H37Rv |  | MIC |  | resazurin | 0.4 µg/mL
Cc1ccc(-n2c(=S)[nH]c3ccccc3c2=O)cc1F |  | H37Rv | 12.5 µg/mL | inhibition |  | BACTEC | 0%
C[C@H]1COc2c(N3CCN(C)CC3)c(F)cc3c(=O)c(C(=O)O)cn1c23 |  | 3181-5 |  | MIC |  |  | 1 µg/mL
O=C(NN1C(=O)c2c(Cl)c(Cl)c(Cl)c(Cl)c2C1=O)c1ccc(-n2cccc2)cc1 |  | H37Rv |  | MIC |  | resazurin | 0.4 µg/mL
O=C(N/N=C/C=C/c1ccccc1)c1ccccc1Cl |  |  |  | MIC |  |  | <40 µg/mL
CC1=NN(c2ccc(S(=O)(=O)O)cc2)C(=O)C1N=Nc1ccc(-c2ccc(N=Nc3ccc(OS(=O)(=O)c4ccc(C)cc4)cc3)c(S(=O)(=O)O)c2)cc1 |  | H37Rv | 12.8 µg/mL | inhibition |  | BACTEC | -5%
COc1ccc(CNC(=O)c2nc([N+](=O)[O-])cn2C)cc1OC |  | H37Rv |  | MIC90 |  |  | >200 µg/mL
O=C(O)c1ccc(C(=O)O)nn1 |  | H37Rv |  | MIC bound |  | BACTEC | >12.5 µg/mL
O=C1CCC(c2ccccc2)=NN1 |  |  |  | MIC |  |  | >200 µg/mL
NC(=O)c1nccnc1N |  | H37Rv | 12.5 µg/mL | inhibition |  | BACTEC | 14%
CC(=O)Oc1ccccc1C(=O)Nc1ncc([N+](=O)[O-])s1 |  | ND spoligotype 106 |  | MIC |  | visual reading | 20 µg/mL
CC(=O)C1(C)C(=O)N(c2ccc(F)cc2)C(=O)N1c1ccc(F)cc1 |  | H37Rv |  | MIC bound |  | BACTEC | >12.5 µg/mL
C(#Cc1nc(-c2ccccc2)nc2c1ncn2Cc1ccccc1)c1ccccc1 |  | H37Rv |  | EC50 |  | BACTEC | <12.5 µg/mL
C=C(C)C1CC=C(C)/C(=N/NC(=O)c2cccnc2)C1 | KatG S315T |  |  | MIC |  | visual reading / absorbance | 50 µM
CC[C@@H](CO)NCCN[C@@H](CC)CO | Drug-resistant | D-211 |  | MIC |  | resazurin | 1.2 µM
CN(C)c1ccc(-c2cc(C(F)(F)F)nc3c(C(F)(F)F)cccc23)cc1 |  |  |  | MIC |  |  | >128 µM
COC(=O)C(CO)NC(=O)C(CSC(c1ccccc1)(c1ccccc1)c1ccccc1)NC(=O)OCc1ccccc1 |  | H37Rv |  | MIC |  | BACTEC | ≥12.8 µg/mL
Cc1ccc(C)n1-c1ccc(C(=O)NN2C(=O)c3ccc([N+](=O)[O-])cc3C2=O)cc1 |  | H37Rv |  | MIC |  | resazurin | 6.25 µg/mL
CCCCCCCCCCCCCCCC(=O)NC1CNC(=O)C(C2CCN=C(N)N2)NC(=O)/C(=C/NC(N)=O)NC(=O)C(CO)NC(=O)C(CO)NC1=O |  | H37Rv |  | MIC |  |  | >40 µg/mL

The last 6 rows once more:

smiles,changes,strain,tested at,read-out,setting,method,value
C=C(C)C1CC=C(C)/C(=N/NC(=O)c2cccnc2)C1,KatG S315T,,,MIC,,visual reading / absorbance,50 µM
CC[C@@H](CO)NCCN[C@@H](CC)CO,Drug-resistant,D-211,,MIC,,resazurin,1.2 µM
CN(C)c1ccc(-c2cc(C(F)(F)F)nc3c(C(F)(F)F)cccc23)cc1,,,,MIC,,,>128 µM
COC(=O)C(CO)NC(=O)C(CSC(c1ccccc1)(c1ccccc1)c1ccccc1)NC(=O)OCc1ccccc1,,H37Rv,,MIC,,BACTEC,≥12.8 µg/mL
Cc1ccc(C)n1-c1ccc(C(=O)NN2C(=O)c3ccc([N+](=O)[O-])cc3C2=O)cc1,,H37Rv,,MIC,,resazurin,6.25 µg/mL
CCCCCCCCCCCCCCCC(=O)NC1CNC(=O)C(C2CCN=C(N)N2)NC(=O)/C(=C/NC(N)=O)NC(=O)C(CO)NC(=O)C(CO)NC1=O,,H37Rv,,MIC,,,>40 µg/mL

MIC bound comes from a single tested concentration. A number after MIC or MFC names an inhibition level or a share of isolates. ECn is the concentration giving n% inhibition of infection, replication or growth. Neighbouring rows are from separate reports. An empty or dashed field is not shown. Inhibition is in % at the dose shown (toxicity tests: loss of growth or viability).